## Share of PSTVd loop 15 variants by leaf site

The pool varies loop 15 of the PSTVd intermediate strain in the pattern GGAAACCGNNNNNNC; wild type is GGAAACCGCUACUAC (upper and lower strand joined, each 5' to 3', the first 7 letters being the upper strand, closing pairs included).

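Three N. benthamiana plants were inoculated with the whole mutant pool. Samples came from the inoculated region at 5 days, the leaf margin at 10 and upper systemic leaves at 12.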

Values are reads per thousand in the sample; higher means more abundant, 0 means not found. Each value is the mean of three plants. "Pool" is the share in the plasmid pool used as inoculum, on the same scale. The inoculated region was read from the minus strand, the other sites from the plus strand. With 43,870-66,106 reads a sample, very low values are single reads. The authors trace changes outside the varied positions to PCR and sequencing errors or to mutation in the plant; presence does not show that a variant is infectious alone. For reference, wild type rose from 33.9 per thousand in the pool to 202, 200, 159 (inoculated region), 724, 746, 710 (leaf margin) and 856, 883, 880 (systemic leaves).

| sequence | pool | inoculated region | leaf margin | systemic leaves |
|---|---|---|---|---|
| GGAAACCGAACAAUC | 0.256 | 0.242 | 0 | 0 |
| GGAAACCGAACGUAC | 0.272 | 0.315 | 0.138 | 0.0487 |
| GGAAACCGACACAUC | 0.240 | 0.0875 | 0.0121 | 0.0107 |
| GGAAACCGACGACAC | 0.288 | 0.0685 | 0 | 0.00760 |
| GGAAACCGACGGAGC | 0.192 | 0.0398 | 0 | 0 |
| GGAAACCGACUCUUC | 0.208 | 0.0733 | 0.0200 | 0 |
| GGAAACCGAGAUAGC | 0.240 | 0.126 | 0.00539 | 0 |
| GGAAACCGAGCAACC | 0.304 | 0.0857 | 0 | 0 |
| GGAAACCGAGGCCUC | 0.128 | 0.0796 | 0 | 0 |
| GGAAACCGAGGCGGC | 0.160 | 0.150 | 0 | 0 |
| GGAAACCGAGGGCCC | 0.176 | 0.120 | 0.00539 | 0 |
| GGAAACCGAGGGUCC | 0.240 | 0.141 | 0.00668 | 0 |
| GGAAACCGAGUACAC | 0.256 | 0.0741 | 0.0223 | 0 |
| GGAAACCGAGUUUGC | 0.240 | 0.0768 | 0.0141 | 0 |
| GGAAACCGAUAGAAC | 0.208 | 0.322 | 0.166 | 0.0379 |
| GGAAACCGAUAGUAC | 0.336 | 0.333 | 4.97 | 3.84 |
| GGAAACCGAUAGUUC | 0.304 | 0.314 | 0.114 | 0.00537 |
| GGAAACCGAUCCAAC | 0.144 | 0.0848 | 0.00539 | 0 |
| GGAAACCGAUCGCCC | 0.208 | 0.107 | 0.0121 | 0.00537 |
| GGAAACCGAUCGUAC | 0.240 | 0.389 | 0.145 | 0.0458 |
| GGAAACCGAUUAAUC | 0.144 | 0.0723 | 0.0141 | 0 |
| GGAAACCGAUUUGUC | 0.208 | 0.137 | 0 | 0 |
| GGAAACCGCAGAAGC | 0.288 | 0.101 | 0.0241 | 0 |
| GGAAACCGCAGAUUC | 0.256 | 0.267 | 0.0859 | 0.0237 |
| GGAAACCGCAUUUUC | 0.288 | 0.117 | 0.0215 | 0.0104 |
| GGAAACCGCCCAAUC | 0.240 | 0.129 | 0.0121 | 0 |
| GGAAACCGCGCCUGC | 0.224 | 0.0883 | 0.0128 | 0 |
| GGAAACCGCGGGCCC | 0.176 | 0.0811 | 0.0256 | 0 |
| GGAAACCGCGGUGGC | 0.208 | 0.142 | 0.0215 | 0 |
| GGAAACCGCGUGGAC | 0.176 | 0.102 | 0 | 0 |
| GGAAACCGCUUCACC | 0.224 | 0.0940 | 0.00742 | 0 |
| GGAAACCGCUUUUUC | 0.368 | 0.132 | 0.00668 | 0 |
| GGAAACCGGAAGACC | 0.224 | 0.112 | 0.00742 | 0.00537 |
| GGAAACCGGACCGAC | 0.176 | 0.135 | 0.0182 | 0.00537 |
| GGAAACCGGAGCCUC | 0.256 | 0.0965 | 0.00742 | 0.00537 |
| GGAAACCGGAUAGUC | 0.272 | 0.185 | 0 | 0 |
| GGAAACCGGCCUAGC | 0.240 | 0.141 | 0.00668 | 0 |
| GGAAACCGGGCGGUC | 0.256 | 0.535 | 0.0187 | 0.00537 |
| GGAAACCGGGGGGGC | 0.192 | 0.0924 | 0.0200 | 0.00537 |
| GGAAACCGGGGGUGC | 0.160 | 0.0615 | 0.0200 | 0.00537 |
| GGAAACCGGUAAAAC | 0.176 | 0.317 | 0.150 | 0.0540 |
| GGAAACCGGUCCUCC | 0.272 | 0.108 | 0.00539 | 0.0107 |
| GGAAACCGGUCGGAC | 0.256 | 0.119 | 0.00668 | 0.00537 |
| GGAAACCGGUUCAAC | 0.304 | 0.0752 | 0.00668 | 0 |
| GGAAACCGGUUCCUC | 0.256 | 0.112 | 0.0128 | 0.00537 |
| GGAAACCGGUUCGUC | 0.288 | 0.0847 | 0 | 0.00504 |
| GGAAACCGUAGGCAC | 0.160 | 0.0866 | 0.0128 | 0 |
| GGAAACCGUCACUAC | 0.112 | 0.377 | 0.133 | 0.0515 |
| GGAAACCGUCCAUGC | 0.224 | 0.181 | 0.0490 | 0 |
| GGAAACCGUCUCGCC | 0.208 | 0.131 | 0.00539 | 0 |
| GGAAACCGUGCCUGC | 0.256 | 0.0803 | 0.0121 | 0.00537 |
| GGAAACCGUGGAAUC | 0.224 | 0.0615 | 0.0148 | 0 |
| GGAAACCGUGUCACC | 0.240 | 0.0914 | 0.00539 | 0 |
| GGAAACCGUUACUGC | 0.160 | 0.320 | 0.104 | 0.0363 |
| GGAAACCGUUAUGUC | 0.272 | 0.0787 | 0.00668 | 0 |
| GGAAACCGUUCAAAC | 0.272 | 0.328 | 0.0980 | 0.00537 |
| GGAAACCGUUCCAAC | 0.256 | 0.287 | 0.0941 | 0.00537 |
| GGAAACCGUUCCCAC | 0.160 | 0.388 | 0.155 | 0.00537 |

Excerpt, the final 3 entries:

GGAAACCGUUCAAAC (pool 0.272) read inoculated region 0.328; leaf margin 0.0980; systemic leaves 0.00537.
GGAAACCGUUCCAAC (pool 0.256) read inoculated region 0.287; leaf margin 0.0941; systemic leaves 0.00537.
GGAAACCGUUCCCAC (pool 0.160) read inoculated region 0.388; leaf margin 0.155; systemic leaves 0.00537.

Reference: Wu et al. 2024, doi:10.1371/journal.ppat.1012142.